In assay [1] the target is PltA (A subunit of typhoid toxin) (Salmonella enterica serovar Typhi).
Assay [2] addresses PltB pentamer (homomeric B subunit of typhoid toxin) (Salmonella enterica serovar Typhi). As to the kind of experiment: interface analysis of the crystal structure of the holotoxin.
The target in assay [3] is T1, PltB pentamer (homomeric B subunit of typhoid toxin) (Salmonella enterica serovar Typhi).
T1 chain: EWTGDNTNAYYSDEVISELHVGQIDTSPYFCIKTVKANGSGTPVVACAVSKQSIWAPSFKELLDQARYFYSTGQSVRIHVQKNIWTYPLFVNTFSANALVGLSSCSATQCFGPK

In assay [1], CdtB (A subunit of typhoid toxin) returned a buried surface area of 950 Å^2 and a ΔiG of -5.2 kcal/mol.

As to “PltA (A subunit of typhoid toxin) (enzyme)”, in assay [2], the buried surface area was 1660 Å^2 and the ΔiG was -17.7 kcal/mol.

B1: CdtB (A subunit of typhoid toxin) (enzyme)
chain: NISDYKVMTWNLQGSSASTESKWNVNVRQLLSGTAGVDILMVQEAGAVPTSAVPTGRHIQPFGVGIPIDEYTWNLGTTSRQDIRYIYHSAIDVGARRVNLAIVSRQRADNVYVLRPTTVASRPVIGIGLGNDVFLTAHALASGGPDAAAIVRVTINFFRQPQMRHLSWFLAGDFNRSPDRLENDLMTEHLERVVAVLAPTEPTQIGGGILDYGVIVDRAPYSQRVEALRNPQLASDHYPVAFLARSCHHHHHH
In the case of B1, in assay [3], the binding result is “no binding”.

These data come from US20160144013A1 (YALE UNIVERSITY, published 2016).
